A mixed list of measured activities; the numbers were collected in NIAID ChemDB.

Shared fields: growth or infection tests; organism: HIV-1; read by: cytopathic effect / MTT; read-out: EC50

ECn is the concentration giving n% inhibition of infection, replication or growth. Conditions beyond the fields shown may differ between rows. An empty or dashed field is not shown.

SMILES	strain	cells	mutations	value
Fc1cccc(Cl)c1C1OCc2nc3ccccc3n21	IIIB	CEM	-	6.24 µM
Cc1cc(C)nc(NS(=O)(=O)c2ccc(N=C3C(=O)Nc4ccc(Cl)cc43)cc2)n1	IIIB	MT-4	-	10.3 µg/mL
Fc1cccc(F)c1C1OCc2nc3ccccc3n21	Pyridinone-resistant (RT Y181C)	CEM	RT-Y181C	≥13.85 µM
Cn1ncc2c1S(=O)(=O)N(Cc1cccc(Cl)c1)C(=O)N2Cc1ccc(Cl)cc1Cl	IIIB	MT-4	-	>257.5 µM
Nc1nc(NC2CC2)c2ncn([C@H]3C=C[C@@H](CO)C3)c2n1	IIIB	MT-4	-	1.6 µM
Cc1nn(-c2ccccc2)c2nc(NCc3ccccc3)oc12	-	MT-4	-	>23 µM
Cc1cn([C@H]2C=C[C@@H](CO)O2)c(=O)[nH]c1=O	IIIB	MT-4	-	0.81 µM
Nc1ccn([C@H]2CC[C@@H](CO)O2)c(=O)n1	RF	MT-2	-	~0.1 µg/mL
Cc1ccnc2c1NC(=O)c1cccnc1N2C1CC1	IIIB	MT-4	-	0.03 µM
O=C1N(Cc2cccc(O)c2)[C@H](CCc2ccccc2)[C@@H](O)[C@@H](Cc2ccccc2)N1Cc1cccc(O)c1	RF	MT-2	-	<0.115 µM
CC(C)=CCC(Cc1c(O)cc(O)c2c1O[C@H](c1ccc(O)cc1O)CC2=O)C(=O)O	IIIB	MT-4	-	4 µg/mL
Cc1ccnc2c1NC(=O)c1cccnc1N2C1CC1	IIIB	MT-4	-	0.077 µM
CC(C)=CCc1cc([C@@H]2CC(=O)c3c(O)cc(O)c(CC=C(C)C)c3O2)ccc1O	IIIB	MT-4	-	22 µg/mL
O=c1[nH]cnc2c1ncn2[C@H]1CC[C@@H](CO)O1	IIIB	MT-2	-	12 µM
Nc1nc(Cl)nc2c1ncn2[C@H]1O[C@@H](CO)[C@@H](O)[C@@H]1O	-	MT-4	-	>10 µM
CC(C)=CCc1c(O)cc(O)c2c1O[C@H](c1cc3c(cc1O)O[C@@H](c1ccc(O)cc1)[C@@H]3c1cc(O)cc(O)c1)CC2=O	IIIB	MT-4	-	23 µg/mL
CC(C)[C@H](NC(=O)N(C)Cc1ccccn1)C(=O)N[C@@H](Cc1ccccc1)[C@H](O)[C@H](O)[C@H](Cc1ccccc1)NC(=O)[C@@H](NC(=O)N(C)Cc1ccccn1)C(C)C	IIIB	MT-4	-	0.2 µM
Cc1cc(C)nc(NS(=O)(=O)c2ccc(N=C3C(=O)Nc4ccccc43)cc2)n1	IIIB	MT-4	-	8 µg/mL
Cn1ncc2c1S(=O)(=O)N(Cc1cccc(Cl)c1)C(=O)N2Cc1ccc(F)cc1	IIIB	MT-4	-	>208.9 µM
CCOC(=O)CNc1c([N+]#N)c(C)nn1-c1ccccc1	-	MT-4	-	>122 µM
CCCCOCCCCCCCCC(=O)O	-	CEM	-	<40 µM
CC(C)(C)NC(=O)[C@@H]1CN(Cc2cccnc2)CCN1C[C@@H](O)C[C@@H](Cc1ccccc1)C(=O)N[C@H]1c2ccccc2C[C@H]1O	NL4-3	MT-4	-	0.041 µM
Cc1cn([C@H]2C[C@H](N=[N+]=[N-])[C@@H](CO)O2)c(=O)[nH]c1=O	-	CEM	-	0.02 µM
CC(C)=CCc1c(O)cc2c(c1O)C(=O)C[C@@H](c1ccc(O)cc1)O2	IIIB	MT-4	-	>200 µg/mL
Cc1c(C(C)(C)C)s/c(=N\S(=O)(=O)c2cccc([N+](=O)[O-])c2)n1C	IIIB	MT-4	-	0.085 µM
CC(C)[C@H](NC(=O)N(C)Cc1ccccn1)C(=O)N[C@@H](Cc1ccccc1)C[C@H](O)[C@H](Cc1ccccc1)NC(=O)[C@@H](NC(=O)N(C)Cc1ccccn1)C(C)C	-	MT-4	-	0.16 µM
Nc1ccn([C@H]2CC[C@@H](CO)O2)c(=O)n1	IIIB	MT-2	-	5.924 µM
O=C1N(Cc2cccc(CO)c2)[C@H](Cc2ccccc2)[C@H](O)[C@@H](C(Br)Cc2ccccc2)N1Cc1cccc(CO)c1	RF	MT-2	-	<2.1 µM
Cn1ncc2c1S(=O)(=O)N(Cc1cccc(Cl)c1)C(=O)N2Cc1ccccc1	IIIB	MT-4	-	>300.1 µM
C1CNCCNCCCN[C@H]([C@@H]2CNCCCNCCNCCCN2)CNC1	RF	MT-4	-	0.29 µM
CC(C)c1s/c(=N\S(=O)(=O)c2cccc([N+](=O)[O-])c2)n(C)c1Cl	IIIB	MT-4	-	0.048 µM
C1CNCCNCCCN(CCCC2CNCCCNCCNCCCN2)CCNC1	IIIB	MT-4	-	1.96 µM
CCn1nnc2c(C)nn(C)c21	-	MT-4	-	>200 µM
CNC(C)[C@H]1O[C@H](O[C@@H]2[C@@H](O)[C@H](O[C@@H]3OC[C@@](C)(O)[C@@H](NC)[C@@H]3O)[C@@H](NC(=O)[C@@H](N)CCCN=C(N)N)C[C@H]2NC(=O)[C@@H](N)CCCN=C(N)N)[C@H](NC(=O)[C@@H](N)CCCN=C(N)N)[C@@H](O)[C@@H]1O	NL4-3	MT-4	-	15 µM
CCCCCCOCCCCCCC(=O)O	-	CEM	-	>40 µM
Nc1nc(N)c2ncn([C@H]3CO[C@@H](CO)O3)c2n1	IIIB	MT-2	-	9.7 µM
CCn1c(C)c(C(C)(C)C)s/c1=N\S(=O)(=O)c1cccc([N+](=O)[O-])c1	IIIB	MT-4	-	>11.5 µM
Nc1nc(NC2CC2)c2ncn([C@H]3C=C[C@@H](CO)O3)c2n1	BRU PITT WT	PBMC	-	4.4 µM
CC(C)[C@H](NC(=O)N(C)Cc1ccccn1)C(=O)N[C@@H](Cc1ccccc1)[C@@H](O)[C@H](O)[C@H](Cc1ccccc1)NC(=O)[C@@H](NC(=O)N(C)Cc1ccccn1)C(C)C	IIIB	MT-4	-	1.54 µM
Cc1cn([C@H]2C[C@H](N=[N+]=[N-])[C@@H](CO)O2)c(=O)[nH]c1=O	NL4-3	MT-4	AMD3100-resistant	0.005 µg/mL
Cc1cn([C@H]2C[C@H](N=[N+]=[N-])[C@@H](CO)O2)c(=O)[nH]c1=O	IIIB	MT-4	-	0.04 µg/mL
Nc1nc(=O)n([C@H]2CS[C@@H](CO)O2)cc1F	RF	MT-4	-	2.1 µM
Cc1nn(-c2ccccc2)c2nn([C@@H]3O[C@H](CO)[C@@H](O)[C@H]3O)nc12	-	MT-4	-	>145 µM
CCOCCCCCCCCCCC(=O)O	-	CEM	-	>40 µM
Nc1nc(Cl)nc2c1ncn2[C@@H]1C=C[C@H](CO)O1	-	MT-4	-	>10 µM
CCCCCOCCCCCCCC(=O)O	-	CEM	-	>40 µM
Nc1nc2c(ncn2[C@H]2CO[C@@H](CO)O2)c(=O)[nH]1	-	MT-2	RT-Q151M A62V	>50 µM
CCNc1nc2c(o1)c(C)nn2-c1ccccc1	-	MT-4	-	>29 µM
NC(=O)c1cccc(CN2C(=O)N(Cc3cccc(C(N)=O)c3)[C@H](Cc3ccc(F)cc3)[C@H](O)[C@H]2CCc2ccc(F)cc2)c1	RF	MT-2	-	<0.035 µM
Cc1cn([C@H]2C[C@H](N=[N+]=[N-])[C@@H](CO)O2)c(=O)[nH]c1=O	IIIB-R (RT-Y181C)	MT-4	RT-Y181C	0.0023 µM
Cc1cn([C@H]2C[C@H](N=[N+]=[N-])[C@@H](CO)O2)c(=O)[nH]c1=O	IIIB	MT-4	-	0.0053 µM
COc1ccc([C@@H]2CC(=O)c3c(O)cc(O)cc3O2)cc1O	IIIB	MT-4	-	>200 µg/mL
C1CNCCNCCCN(CCCN2CCCNCCNCCCNCC2)CCNC1	HE	MT-4	-	0.5 µM
c1cc(CN2CCCNCCNCCCNCC2)ccc1CN1CCCNCCNCCCNCC1	AMD3100-resistant	MT-4	-	>100 µM
[N-]=[N+]=N[C@@H]1C[C@@H](n2cnc3c(N)nc(Cl)nc32)O[C@H]1CO	-	MT-4	-	>10 µM
Cc1[nH]nc2ccc(CN3C(=O)N(Cc4ccc5n[nH]c(C)c5c4)[C@H](Cc4ccccc4)[C@H](O)[C@H]3CCc3ccccc3)cc12	RF	MT-2	-	<0.018 µM
Cc1cn([C@H]2C[C@H](N=[N+]=[N-])[C@@H](COP(=O)(OCCSC(=O)C(C)(C)C)OCCSC(=O)C(C)(C)C)O2)c(=O)[nH]c1=O	-	CEM + CEM TK-	-	0.45 µM
Nc1ccn([C@H]2CC[C@@H](CO)O2)c(=O)n1	IIIB	MT-2	-	0.6 µM
Cc1nn(-c2ccccc2)c2c1nnn2[C@@H]1O[C@H](CO)[C@@H](O)[C@H]1O	-	MT-4	-	>145 µM
Nc1ccn([C@H]2CC[C@@H](CO)O2)c(=O)n1	RF	MT-4	RT-M184I	0.22 µM
Cc1c(O)cccc1C(=O)N[C@@H](CSc1ccccc1)[C@H](O)CN1C[C@H]2CCCC[C@H]2C[C@H]1C(=O)NC(C)(C)C	NL4-3	MT-4	SQV-resistant (PR G48V L90M)	0.106 µM
Nc1noc2ccc(CN3C(=O)N(Cc4ccc5onc(N)c5c4)[C@H](Cc4ccccc4)[C@H](O)[C@H]3CCc3ccccc3)cc12	RF	MT-2	-	<0.132 µM
Cn1ncc2c1S(=O)(=O)N(Cc1cccc(Cl)c1)C(=O)N2Cc1ccccc1Br	IIIB	MT-4	-	>252.3 µM
Cc1cn([C@H]2C=C[C@@H](CO)O2)c(=O)[nH]c1=O	-	MT-2	RT-Q151M	26 µM
CCCNC(=O)n1nnc2c(C)nn(-c3ccccc3)c21	-	MT-4	-	>74 µM
O=C1N(CC2CC2)[C@H](CCc2ccccc2)[C@@H](O)[C@@H](Cc2ccccc2)N1CC1CC1	RF	MT-2	-	<5.2 µM
CC(=O)N1C(=O)C(=Nc2ccc(S(=O)(=O)Nc3nc(C)cc(C)n3)cc2)c2ccccc21	IIIB	MT-4	-	8 µg/mL
CCCCCCCOCCCCCC(=O)O	-	CEM	-	<40 µM
Nc1cccc(CN2C(=O)N(Cc3ccc4[nH]nc(N)c4c3)[C@H](CCc3ccccc3)[C@@H](O)[C@H]2Cc2ccccc2)c1	RF	MT-2	-	<0.053 µM

Again, the opening 4 rows:

| SMILES | strain | cells | mutations | value |
|---|---|---|---|---|
| Fc1cccc(Cl)c1C1OCc2nc3ccccc3n21 | IIIB | CEM | - | 6.24 µM |
| Cc1cc(C)nc(NS(=O)(=O)c2ccc(N=C3C(=O)Nc4ccc(Cl)cc43)cc2)n1 | IIIB | MT-4 | - | 10.3 µg/mL |
| Fc1cccc(F)c1C1OCc2nc3ccccc3n21 | Pyridinone-resistant (RT Y181C) | CEM | RT-Y181C | ≥13.85 µM |
| Cn1ncc2c1S(=O)(=O)N(Cc1cccc(Cl)c1)C(=O)N2Cc1ccc(Cl)cc1Cl | IIIB | MT-4 | - | >257.5 µM |